Experimental findings from patent publication US20240383784A1, “ANTIMICROBIAL SYSTEM AND METHOD” (KEMIRA OYJ, priority 2021, published 2024) are described below.

The series in a line: Corrosion testing following ASTM G31-72, steel coupons in white water / process water. Conditions: Example 3; 0.08 ppm Compound A; all coupons; 7 days, 55° C.

On to `Cc1ccc(S(=O)(=O)C=CC#N)cc1` [Compound A, 3-[(4-methylphenyl)sulphonyl]-2-propenenitrile], for which the corrosion observed result is “no corrosion”.
